Measured data: PubChem BioAssay AID1259414 (Drosophila RNAi Screening Center, 2018)
The deposit covers about 24,000 reagents; below is an unselected part of those with a known target gene and a result. Over the whole deposit, about 1,210 (5%) are marked active. 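Inactive calls also include excluded dsRNAs with several or no targets, genes unexpressed in JW18, and well A1, regardless of score.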 The numbers tell different reagents against one gene apart. A plus sign joins genes that one reagent is predicted to hit. Reagent sequences are not shown.

- Aim: 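Fly genes that alter Wolbachia amount inside host cells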 (primary screen)
- System: Drosophila JW18 cells infected with Wolbachia
- Reagents: long dsRNA against Drosophila genes, 0.25 µg dsRNA per well of a 384-well plate
- Timing: 5 days
- Treatment: cells persistently infected with Wolbachia before knock-down; no added drug
- Read-out: 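Imaged fluorescence in situ signal for Wolbachia 23S rRNA per DAPI-counted host cell, given as a robust z-score within each plate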
- Direction: Wolbachia per cell robust z: higher = more Wolbachia per host cell than the plate typical
- Rule for the call: 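Active if absolute robust z reaches 1.5 in two or more of three replicates, leaving out multi- or no-target dsRNAs, genes unexpressed in JW18 and A1 wells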

Target gene,reagent,"Wolbachia per cell robust z, rep 1","Wolbachia per cell robust z, rep 2","Wolbachia per cell robust z, rep 3",outcome
CG3222,1,0.507,1.27,0.797,inactive
CG11626,1,-4.87,-0.33,-2.17,inactive
CG14014,1,-0.903,-0.281,-0.0855,inactive
CG9951,1,0.763,-6.8,-4.17,active
CG33116,1,-0.418,0.647,0.811,inactive
CG33116,2,0.81,-0.632,-0.644,inactive
Unc50 (Unc50 RNA binding protein),1,0.226,1.09,0.452,inactive
Unc50 (Unc50 RNA binding protein),2,-0.126,-0.915,-0.161,inactive
Unc50 (Unc50 RNA binding protein),3,-1.6,1.06,1.08,inactive
tobi (target of brain insulin),1,-3.37,-0.182,-1.14,inactive
DIP-gamma (Dpr-interacting protein gamma),1,-1.69,-0.106,0.25,inactive
CG11052,1,-1.8,0.172,0.854,inactive
CG31457,1,0.787,0.777,1.17,inactive
CG31457,2,-0.164,0.118,0.382,inactive
CG18179,1,-2.48,-1.13,-0.817,inactive
CG18179,2,-0.399,-0.584,1.52,inactive
CG18179,3,0.373,-1.34,-1.25,inactive
CG42369,1,-0.227,0.122,-0.35,inactive
Ir56d (Ionotropic receptor 56d),1,0.44,1.05,0.806,inactive
Ir56d (Ionotropic receptor 56d),2,0.232,-1,-1.05,inactive
CG5958,1,0.482,1.39,-0.101,inactive
CG43405,1,-0.674,0.48,0.693,inactive
CG31908,1,-1.29,0.0347,0.933,inactive
CG15145,1,0.983,0.0253,-0.841,inactive
CG15145,2,0.0906,-0.689,-0.02,inactive
sstn (stepping stone),1,-0.25,-0.293,0.401,inactive
sstn (stepping stone),2,0.17,0.792,0.537,inactive
CG14341,1,0.667,0.174,-5.87,inactive

The list goes on; the last 4 above are carried over.
Target gene,reagent,"Wolbachia per cell robust z, rep 1","Wolbachia per cell robust z, rep 2","Wolbachia per cell robust z, rep 3",outcome
CG15145,2,0.0906,-0.689,-0.02,inactive
sstn (stepping stone),1,-0.25,-0.293,0.401,inactive
sstn (stepping stone),2,0.17,0.792,0.537,inactive
CG14341,1,0.667,0.174,-5.87,inactive
Osi4 (Osiris 4),1,0.184,0.298,0.275,inactive
CG4367,1,-0.411,0.396,0.508,inactive
Irk3 (Inwardly rectifying potassium channel 3),1,-0.713,-1.25,-0.451,inactive
cnc (cap-n-collar),1,-0.83,1.06,0.425,inactive
cnc (cap-n-collar),2,0.716,-0.841,-0.105,inactive
cnc (cap-n-collar),3,0.383,-0.053,-0.638,inactive
cnc (cap-n-collar),4,-2.11,0.563,-3.78,active
cnc (cap-n-collar),5,-1.28,-2.91,-2.51,active
sif (still life),1,-0.389,-0.467,-0.596,inactive
sif (still life),2,-0.283,-0.302,0.518,inactive
sif (still life),3,0.647,0.469,-0.778,inactive
sif (still life),4,0.479,-0.221,-0.878,inactive
sif (still life),5,-9.16,-0.644,-0.187,inactive
CG4882,1,-2,-0.00923,0.543,inactive
CG4882,2,0.329,-0.505,-8.22,inactive
CG34228,1,-4.14,0.908,0.514,inactive
Dhc62B (Dynein heavy chain at 62B),1,-2.63,1.01,1.13,inactive
Ret (Ret oncogene),1,-2.8,0.409,0.539,inactive
Ret (Ret oncogene),2,-0.79,-0.864,0.358,inactive
CG11788,1,-3.75,-0.128,0.513,inactive
Jhbp10 (Juvenile hormone binding protein 10),1,0.166,1.17,0.693,inactive
CG34033,1,-0.297,-1.08,1.56,inactive
Taz (Tafazzin),1,-3.29,-6.21,-3.78,active
Taz (Tafazzin),2,0.102,-0.658,0.396,inactive
Taz (Tafazzin),3,-0.987,-0.145,-2.74,inactive
CG5445,1,0.164,1.51,-0.0166,inactive
Gbeta13F (G protein beta subunit 13F),1,0.301,-8.78,0.178,inactive
yuri (yuri gagarin),1,-0.0209,-6.54,0.863,inactive
yuri (yuri gagarin),2,-0.579,1.13,-0.0377,inactive
yuri (yuri gagarin),3,0.698,-0.0246,-11.3,inactive
yuri (yuri gagarin),4,-0.00652,1.48,-0.286,inactive
BBS9 (Bardet-Biedl syndrome 9),1,-0.518,-5.27,-0.345,inactive
BBS9 (Bardet-Biedl syndrome 9),2,-0.488,0.0617,0.0748,inactive
Gnptab,1,-3.14,0.108,-0.483,inactive
Gint3 + CG42306,1,-0.537,0.247,1.35,inactive
Gint3 + CG42306,2,0.966,1.85,0.177,inactive
CG5687,1,-0.0213,-0.237,0.285,inactive
achi (achintya),1,-4.83,0.687,0.605,inactive
achi (achintya),2,0.441,-4.08,-1,inactive
CHMP2B (Charged multivesicular body protein 2b),1,-1.47,-1.16,-1.35,inactive
CHMP2B (Charged multivesicular body protein 2b),2,0.826,0.243,0.484,inactive
